Measured values as given in the supplement of paper PMC9931576.
Human monoclonal antibodies against the spike receptor-binding domain (heavy:light variable regions). IC50 against pseudoviruses bearing the spike of naturally observed variants; lower = stronger; >10 µg/ml means not reached at the top dose. No active / inactive call. The stated detection limit is 0.0005 µg/ml; values near or below 0.001 µg/ml lie at the floor of the assay.

Assays:
Experiment in all cases: pseudovirus neutralization IC50; higher = weaker neutralization
[1] = molecular target: SARS-CoV-2 Omicron BA.1 spike pseudovirus
Procedure: (§1)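 Single-round VSV luciferase pseudovirus mixed with antibody dilutions for 1 h and put on Huh-7 cells for about a day; IC50 from the dose curve.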

[2] = molecular target: SARS-CoV-2 Omicron BA.2 spike pseudovirus
Procedure: as §1

[3] = molecular target: SARS-CoV-2 Omicron BA.2.75 spike pseudovirus
Procedure: as §1

[4] = molecular target: SARS-CoV-2 Omicron BA.5 spike pseudovirus
Procedure: as §1

[5] = molecular target: SARS-CoV-2 Omicron BQ.1.1 spike pseudovirus
Procedure: as §1

[6] = molecular target: SARS-CoV-2 Omicron XBB spike pseudovirus
Procedure: as §1

[7] = molecular target: SARS-CoV-2 early D614G spike pseudovirus
Procedure: as §1

Binder | pseudovirus neutralization IC50 [1] [µg/mL] | pseudovirus neutralization IC50 [2] [µg/mL] | pseudovirus neutralization IC50 [3] [µg/mL] | pseudovirus neutralization IC50 [4] [µg/mL] | pseudovirus neutralization IC50 [5] [µg/mL] | pseudovirus neutralization IC50 [6] [µg/mL] | pseudovirus neutralization IC50 [7] [µg/mL]
BD56-1230 (protein) chain 1: QVQLVQSGAEVKKPGSSVKVSCKSFGGTLIDYAVSWVRQAPGEGLEWMGGIVPILDTTNYAQKFQGRVSITADKSTSTAYMELSGLTSEDTAVYYCAAGGQYCGGDRCYSSYFDYWGQGALVTVSS chain 2: DIVLTQSPGTLSLSPGERATLSCRASQSISSTHLAWYQQKPGQAPRLLIYGASSRATGIPDRFSGSGSGTDFTLTISRLAPEDFAVYYCQQYGSSPQRTFGQGTKVEIK | 0.226 | 0.151 | 0.0987 | 2.92 | 1.88 | > 10 | 1.59
BD56-1243 (protein) chain 1: QVQLVQSGAEVKKPGSSVRVSCKASGGTLINYALSWVRQAPGQGLEWMGGIVPILDITNYSPKFQGRVTITADKSTSTAYMELSSLRSEDTAVYFCATGVRYCSGGSCNSAYFDSWGQGTLVTVSS chain 2: EIVLTQSPGTLSLSPGERATLSCRASQSISSSHLAWYQHKPGQAPRLLIYGASSRATGIPDRFSGSGSGTDFTLTISRLAPEDFAVYYCQQYGSSPQRTFGQGTKVEIK | 0.26 | 0.0133 | 0.0604 | > 10 | > 10 | > 10 | 0.001
BD56-1235 (protein) chain 1: QVQLVQSGPEVKKPGSSVKVSCKASGGTLINYAVTWVRQAPGQGLEWMGGIVPILDMTNYAQRFQGRVTVTADKSTNTAFMELSSLRSEDTAVYYCATGGPFCSGTICYSSYSDSWGQGTLVTVSS chain 2: EIVLTQSPGTLSLSPGERATLSCRASQSLSSSHLAWYQHKPGQAPRLLIYAASNRATGIPDRFSGSGSGTDFTLTISRLAPEDFAVYYCQQYGSSPQRTFGQGTKVEIK | 0.444 | 0.0467 | 0.236 | > 10 | > 10 | > 10 | > 10
BD56-1231 (protein) chain 1: HVQLVQSGAEVKKPGSSMKVSCKASGGTMINYAISWVRQAPGQGLEWMGDIVPILDATNIAQKFRGRVSITADKSTNTAYMEVSGLTSEDTAVYFCAAGGQYCGGGDCFSSYFDYWGEGSLVTVSS chain 2: DIVLTQSPGTLSLSPGERATLSCRASQSISSTYLAWYQQKPGQAPRLLIYGASSRATGIPDRFSGSGSGTDFTLSITRLAPEDFAVYYCQQYGNSPQRTFGQGTKVEIK | > 10 | 0.674 | 0.791 | 2.29 | > 10 | > 10 | > 10
BD56-1263 (protein) chain 1: EVQLVESGGGLVQPGRSLRLSCAASGFTFDDYAMHWVRQAPGKGLEWVSGVSWNSGTIGYADSVKGRFIIIRDNAKNSLYLQMNSLRAEDTALYYCAKDIGRLDAMVMGNDYWGQGTLVTVSS chain 2: QSALTQPASVSGSPGQSITITCTGTSSDVGGYNFVSWYQQHPGKAPKLMIYDVTKRPSGVSNRFSGSKSGNTASLIISGLQAEDEADYYCTSYTSSSTGVFGGGTKLTVL | 0.108 | 0.0334 | 0.112 | 0.275 | > 10 | 2.71 | 0.0974
BD56-1245 (protein) chain 1: QVQLVQSGAEVKKPGASVKVSCKASGYMFTSYGISWVRQAPGQGLEWIGWISAYNGDTKYAHKVQDRLTMTTDTSTSTAYMELRSLRYDDTAVYYCARDFGEISGSENHDYWGQGTLVTVSS chain 2: EIVLTQSPATLSLSPGERATLSCRASQSVSIYLAWFQQKPGQAPRLLIYHASTRATGIPGRFSGSGSGTDFTLTISSLEPEDFAVYYCQHRSNWPFFGQGTRLEIK | 0.177 | 0.0794 | 0.158 | 1.93 | > 10 | 1.64 | 0.0632
BD56-1268 (protein) chain 1: EVQLVESGGGLVQPGRSLRLSCEASGFTFDDYAMHWVRQAPGKGLEWVSGVSWNSGTIGYADSVKGRFFIIRDNGGNSLYLQMIRLRVEDTALYYCAKDTRRSTGQGEAYGLDVWGRGTTVTVSS chain 2: QSALTQPASVSGSPGQSITFSCTGTSSDVGSYNLVSWYQQHPGRAPKLIISEVSKRPSGISNRFSGSKSGNTASLTISGLQAEDEADYYCCSYAENTTFEGVIFGGGTKLTVL | 0.0065 | 0.00721 | 0.00718 | 0.0524 | > 10 | 1.84 | 0.0103
BD56-1246 (protein) chain 1: QVQLVESGGGVVQPGRSLRLSCAASGFTFSNYDMHWVRQAPGKGLEWVAVISYDGSSKFYADSVKGRFTVSRDNSKNTLYLQMNSLRIEDTALYFCAKDFGHQLVDFFDFWGQGTLVTVSS chain 2: DIQMTQSPSSLSASVGDRVTITCRASQSIGTYLNWYQQKPGKAPILLIYTASSLHTGVPSRFSGSGSGTDFTLTISSLQPEDLATYYCQQSYVTPPWTFGHGTKVEIK | 1.65 | 1.65 | 2.43 | 1.67 | 2.25 | 1.39 | > 10
BD56-1258 (protein) chain 1: QVQLVQSGAEVKRPGSSVKVSCKASGGTFSSSGISWVRQAPGQGLEWMGRIIPVLGITNYAQKFQGRVTITADKSTSTVYMDMSSLTSEDTAMYYCARDQNTVTTFGIGHYYGMDVWGQGSTVTVSS chain 2: DIQMTQPSTLSASVGDRVTITCRASQSISSWLAWYQQKPGKAPKLLIYDASSLESGVPSRFSGSGSGTDFTLTISSLQPGDFATYYCQQYNSYPLFGQGTKVEIK | 0.0397 | 0.0289 | 0.0253 | > 10 | > 10 | > 10 | 0.0329
BD56-1264 (protein) chain 1: EVQLVESGGGLVQPGRSLRLSCAASGFTFDDYGMHWVRQAPGKGLEWVAGISWKSGKTVYADSVKGRFTISRDNARNSVYLQMNTQRAEDTALYYCAKDMGWNDDILTGLSFNMDVWGQGTTVTVSS chain 2: DIVLTQSPGTLSLSPGERATLSCRASQSVSSSSLAWYQQKPGQAPRFLIYAASSRATGIPDRFSGSGSGTDFTLTISRLEPEDFAVYYCQQCGSSTTTFGQGTKVEIK | > 10 | > 10 | > 10 | > 10 | > 10 | > 10 | > 10
BD56-1261 (protein) chain 1: QVQLQESGPGLVKPSQTLSLTCTVSGGSIRNDDYYWSWIRQPPGKGLEWIGYIHYSGNTYYNPSLKSRVAISVDTSKNQFSLKLRSVTAADTAVYYCARVDVGGRLVSTFDYWGQGTLVSVSS chain 2: NFMLTQPHSVSESPGMTVTISCTGSSGSIASNYVQWYQQRPGSAPTTVIYENNQRPSGVPDRFSGSIDSSSNSASLTISGLKTEDEADYYCQSYDDSNIAVFGGGTQLTVL | 5.18 | 1.37 | 2.13 | 0.926 | 0.977 | 3.06 | 0.343
BD56-1267 (protein) chain 1: QVQLEESGPGLVKPSQTLSLTCTVSGGSIRNEYYYWSWIRQPPGQGLEWIGYMHYSGNTYYNPSLKSRVAISVDMSKNQFSLKLSSVTVADTAVYYCARVDVGGRLVSTFDHWGQGTLVTVSS chain 2: NFMLTQPHSVSESPGMTVTISCTGSSGSIASNYVQWYQQRPGSAPTTVIYENDQRPSGVPDRFSGSIDSSSNSASLTISGLKTEDEADYYCQSYDDSNIAVFGGGTQVTVL | 0.0107 | 0.00169 | 0.00477 | 0.0022 | 0.005 | 0.00725 | 0.00194
